# Laboratory results published in PMC7221740, “Cyclic Synthetic Peroxides Inhibit Growth of Entomopathogenic Fungus Ascosphaera apis without Toxic Effect on Bumblebees” (Molecules, 2020).
# System: Ascosphaera apis
# Experiment: Inhibition of radial growth of Ascosphaera apis mycelium in potato-saccharose agar
# Format: cell-based
# Details: 72 h; for EC50 (mg/L) ± SD, fungicidal activity: A. apis mycelium growth; for Mycelium Growth Inhibition (I), %: A. apis, concentration 30 mg/L, potato-saccharose agar, 25 °C
SMILES,"EC50 (mg/L) ± SD, fungicidal activity [mg/L]","Mycelium Growth Inhibition (I), % [%]"
CCCCCC1C2(C)OOC1(C)OO2 (stereo not drawn),7.5 ± 1.0,100
CC(C)CCC1C2(C)OOC1(C)OO2 (stereo not drawn),,66
C=CCC1C2(C)OOC1(C)OO2 (stereo not drawn),10.9 ± 0.7,100
CCCCCCC1C2(C)OOC1(C)OO2 (stereo not drawn),,49
